Test results reported in US20240174727A1 (Eli Lilly and Company, priority 2022, published 2024).

How the values were obtained:
peptide synthesis = settings: whole synthesis, TFA salt, cyclic
[1] = general procedure: Fmoc solid-phase peptide synthesis; Fmoc-Rink-MBHA Low Loading Resin (EMD Millipore), 100-200 mesh, 0.3-0.4 meq/g; HBTU/DIPEA; settings: whole synthesis, RP-HPLC, analytical LC-MS, scale of the general procedure 0.1 mmol, TFA salt

HOOC-(CH2)18-CO-(γGlu)-EKEKEKG-PEG24-EK-βAla-RSS[CFGKRIDRIGHQSGLGC]PSFRHGGKSSGAPPPS-NH2
final HPLC purity (peptide synthesis): >95%

HOOC-(CH2)18-CO-(γGlu)-EKEKEKG-PEG24-EK-βAla-RSS[CFGGKIDRIGHQSGLGC]PSFRHGSPSSGAPPPS-NH2
final HPLC purity (peptide synthesis): >95%

HOOC-(CH2)18-CO-(γGlu)-EKEKEKG-PEG24-EK-βAla-RSS[CFGKRIDRIGHQSGLGC]PSFRHGSPSSGAPPPS-NH2
final HPLC purity (peptide synthesis): >95%

HOOC-(CH2)18-CO-(γGlu)-EKEKEKG-PEG24-EK-βAla-RSS[CFGGKIDRIGHYSGLGC]PSFRHGSPSSGAPPPS-NH2
final HPLC purity ([1]; cyclic): >95%

BFA-EKEKEKGEKGRSS[CFGGKIDRIGHYSGLGC]PSFRHGGPSSGAPPPS-NH2
final LC-MS purity ([1]; one disulfide bridge): >95.0%

(BFAEN2-βAla)-EKEKEKG-PEG24-EK-βAla-RSS[CFGGKIDRIGHYSGLGC]PSFRHGGKSSGAPPPS-NH2
final LC-MS purity ([1]; cyclic): >95.0%

HOOC-(CH2)18-CO-(γGlu)-EKEKEKGS-4Pal-RRSS[CFGGRIDRIGHQSGLGC]PSFRHGGPSSGAPPPS-NH2
final HPLC purity ([1]; one disulfide bridge): >95%
